Results of unrelated studies side by side (data: NIAID ChemDB).

Shared fields: target-level tests; species: Hepatitis C virus

Blank or dashed fields: not listed here.

SMILES | protein | measure | tested at | value
C[C@H](NC(=O)Nc1cccc(-c2nc(C(=O)O)c(O)c(=O)[nH]2)c1)c1cccc2ccccc12 | HCV polymerase | IC50 |  | <100 µM
Cc1c(-c2ccc(OCc3ccccc3)cc2)cnc2c(-c3nn[nH]n3)cnn12 | RNA-dependent RNA polymerase | IC50 |  | >10 µM
CC(C)[C@H](NC(=O)c1ccc2cc(-c3nc4cc(C(=O)O)ccc4n3C3CCCCC3)ccc2n1)C(N)=O | NS5B polymerase | inhibition | 100 µM | 94.96%
CCOC(=O)c1cc2nc(-c3ccc(Cl)cc3)cc(-c3ccccc3)n2n1 | RNA-dependent RNA polymerase | IC50 |  | >10 µM
CNC(=O)c1c(-c2ccc(F)cc2)oc2cc(N3CCOCC3)c(OCCCl)cc12 | Nonstructural protein 5B | IC50 |  | ≤0.5 µM
O=C(NCCn1cncn1)Nc1cscc1-c1nc(C(=O)O)c(O)c(=O)[nH]1 | HCV polymerase | IC50 |  | <25 µM
Cc1nn2c(C3CCCCC3)c(-c3ccc(F)cc3)cnc2c1C(=O)N[C@@H](Cc1ccc(O)cc1)C(=O)O | RNA-dependent RNA polymerase | IC50 |  | <1 µM
CNC(=O)c1c(N(C)S(C)(=O)=O)cc2oc(-c3ccc(F)cc3)c(C(=O)NC)c2c1OC | Nonstructural protein 5B | IC50 |  | ≤0.5 µM
O=C(O)c1ccc2c(c1)nc(-c1ccc3nc(-c4cccc5ccccc45)ccc3c1)n2C1CCCCC1 | NS5B polymerase | inhibition | 33 µM | 98.79%
CNC(=O)c1c(-c2ccc(F)cc2)oc2cc(OCc3ccccc3)c(OCc3ccccc3)cc12 | Nonstructural protein 5B | IC50 |  | >30 µM
O=C(NC(Cc1cnc[nH]1)C(=O)O)c1ccc2c(c1)nc(-c1ccc3nc(-c4ccccc4)cnc3c1)n2C1CCCCC1 | NS5B polymerase | inhibition | 33 µM | 66.78%
CC(C)c1ccc(S(=O)(=O)Nc2ccccc2-c2nc(C(=O)O)c(O)c(=O)[nH]2)cc1 | HCV polymerase | IC50 |  | <100 µM
COc1ccc(-c2ccc(CN)cc2)c(-c2ccc3cc(-c4nc5cc(C(=O)O)ccc5n4C4CCCCC4)ccc3n2)c1 | NS5B polymerase | inhibition | 100 µM | 99.26%
O=C(O)c1nc(-c2ccccc2NS(=O)(=O)c2ccc(F)c(F)c2F)[nH]c(=O)c1O | HCV polymerase | IC50 |  | <100 µM
N#CNC(=O)c1cnn2c(C3CCCCC3)c(-c3ccc(OCc4ccccc4)cc3)cnc12 | RNA-dependent RNA polymerase | IC50 |  | 1–10 µM
Cc1nn(-c2ccccc2)c(C)c1-c1ccc2cc(-c3nc4cc(C(=O)O)ccc4n3C3CCCCC3)ccc2n1 | NS5B polymerase | inhibition | 100 µM | 100%
O=C(O)c1nc(-c2ccccc2NS(=O)(=O)c2cc(S(=O)(=O)c3ccccc3)cs2)[nH]c(=O)c1O | HCV polymerase | IC50 |  | <100 µM
COc1ccc(-c2ccc(Cl)cc2)c(-c2ccc3cc(-c4nc5cc(C(=O)O)ccc5n4C4CC4)ccc3n2)c1 | NS5B polymerase | inhibition | 100 µM | 101%
CS(=O)(=O)c1ccc(-c2ccc(-c3cnc4c(-c5nn[nH]n5)cnn4c3C3CCCCC3)cc2)cc1 | RNA-dependent RNA polymerase | IC50 |  | <1 µM
O=C(Nc1cscc1-c1nc(C(=O)O)c(O)c(=O)[nH]1)OCc1cccc(Cl)c1 | HCV polymerase | IC50 |  | <25 µM
O=C(O)c1cnn2c(-c3ccc(Cl)cc3)cc(-c3ccccc3)nc12 | RNA-dependent RNA polymerase | IC50 |  | >10 µM
CNC(=O)c1c(-c2ccc(F)cc2)oc2cc(-c3ncnn3C)c(OC)cc12 | Nonstructural protein 5B | IC50 |  | ≤0.5 µM
O=C(N[C@@H](Cc1cc2ccccc2[nH]1)C(=O)O)c1cc2nc(-c3ccco3)c(C3CCCCC3)c(=O)n2[nH]1 | RNA-dependent RNA polymerase | IC50 |  | 1–10 µM
O=C(O)c1ccc2c(c1)nc(-c1ccc3nc(-c4ccccc4-c4ccc(Cl)c(Cl)c4)ccc3c1)n2C1CCCCC1 | NS5B polymerase | inhibition | 33 µM | 99.42%
Clc1ccc(Oc2cccc(-c3cnc4c(-c5nn[nH]n5)cnn4c3C3CCCCC3)c2)cc1Cl | RNA-dependent RNA polymerase | IC50 |  | 1–10 µM
Cc1c(Cl)cc(F)cc1S(=O)(=O)NC(=O)Nc1cscc1-c1nc(C(=O)O)c(O)c(=O)[nH]1 | HCV polymerase | IC50 |  | <25 µM
COc1cc(O)c(-c2ccc3cc(-c4nc5cc(C(=O)O)ccc5n4C4CCCCC4)ccc3n2)c(OC)c1 | NS5B polymerase | inhibition | 100 µM | 102%

ICn: concentration for n% inhibition. Rows are shuffled and stem from different studies. Two numbers with a dash give a range or band. Inhibition is in % at the dose shown (toxicity tests: loss of growth or viability).